Common to all, as to test: cell-based or functional assay
Assay [1] deals with SARS-CoV-2 Omicron variant B.1.1.529 spike protein (SARS-CoV-2).
Assay [2] addresses SARS-CoV-2 Delta variant spike protein (SARS-CoV-2).
For assay [3], the target named is SARS-CoV-2 Omicron variant BF.7 spike protein (SARS-CoV-2).
Assay [4] concerns the target SARS-CoV-2 Omicron variant XBB spike protein (SARS-CoV-2).
Assay [5] deals with SARS-CoV-2 Omicron variant BQ.1 spike protein (SARS-CoV-2).
In assay [6] the target is SARS-CoV-2 Omicron variant BQ.1.1 spike protein (SARS-CoV-2).
The target in assay [7] is SARS-CoV-2 spike protein, Omicron sublineage BQ.1.1 (R346T, K444T, F486V) (SARS-CoV-2, UniProt P0DTC2 14-1273).
For assay [8], the target named is SARS-CoV-2 spike protein, Omicron sublineage BF.7 (R346T, F486V) (SARS-CoV-2, UniProt P0DTC2 14-1273).
Assay [9] has as its target SARS-CoV-2 spike protein, Omicron sublineage BA.1.1 (R346K) (SARS-CoV-2, UniProt P0DTC2 14-1273).
Assay [10] deals with SARS-CoV-2 spike protein, Omicron sublineage BA.4.6 (R346T, F486V) (SARS-CoV-2, UniProt P0DTC2 14-1273).
The target of assay [11] is SARS-CoV-2 spike protein, Omicron sublineage BA.4.7 (R346S, F486V) (SARS-CoV-2, UniProt P0DTC2 14-1273).

Numbering of substitutions follows the chain as printed.

B1: MX1024 (bispecific antibody)
chain: EIVMTQSPAILSVSPGERATLSCRASQSVAINLAWYQQKPGQAPRLLIYAASSRATGIPGRFSGSGSETNFTLTISSLQSGDFAVYYCQQYITWPPSYTFGQGTKLEIKGGSSGDTVMTQSPLSLPVTPGEPASISCRSSQSLLNSNGYNYLDWYVQKPGQSPQLLIYLGSNRASGVPDRFSGSGSGTDFTLKISRVEAEDVGVYYCMQPLQTPLFTFGPGTKVEIKGGGGSGGSGSGGGGSASGSGQVTLRESGPALVKPTQTLTLTCTFSGFSLSTRGVCVSWIRQPPGKALEWLAFIDWDDDKYYNTSLKTRLTISKDTSKNQVVLTMTNVHPVDTATYYCARISSHHGSSWCTTFDYWGQGALVTVSAGGSSGEVQLVESGGALIQPGGSLRLSCAASGIIVSANYMSWVRQAPGKGLEWVSVIYSGGSTFYADSVKGRFTISRDNSKNTLYLEMNSLRAEDTAVYYCARDAPILGVSDWGQGTLVTVSSASGGSGDKTHTCPPCPAPELLGGPSVFLFPPKPKDTLMISRTPEVTCVVVDVSHEDPEVKFNWYVDGVEVHNAKTKPREEQYNSYVVSVLTVLHQDWLNGKEYKCKVSNKALPAPIEKTISKAKGQPREPQVYTLPPSRDELTKNQVSLTCLVKGFYPSDIAVEWESNGQPENNYKTTPPVLDSDGSFFKKLTVDKSRWQQGNVFSCSVLHEALHSHYTQKSLSLSPG
On to B1, for which the “IC50, pseudovirus neutralization” value in assay [1] was determined as 0.00163 µg/mL; in assay [2], 0.0329 µg/mL; in assay [3] it was 0.00312 µg/mL; in assay [4] it was 0.0105 µg/mL; in assay [5], 0.0176 µg/mL; in assay [6] it was 0.0121 µg/mL. Moreover, the “IC80, pseudovirus neutralization” value was determined as 0.00544 µg/mL in assay [1]; 0.0371 µg/mL in assay [2]; 0.0125 µg/mL in assay [3]; 0.0129 µg/mL in assay [4]; 0.0371 µg/mL in assay [5]; 0.0169 µg/mL in [6].

B2: MX834 (other)
chain 1: QTVVTQEPSFSVSPGGTVTLTCGLSSGSVSTAYFPSWYQQTPGQAPRTLIYGTNTRSSGVPDRFSGSILGNKAALTITGAQADDESDYYCVLYMGRGIVVFGGGTKLTVLGGSSGEIVLTQSPGTLSLSPGERATLSCRASQSVSSSYLAWYQQKPGQAPRLLIYSASSRATGIPDRFSGSGSGTDFTLTISRLEPEDFAVYFCQQYVGLTGWTFGQGTKVEIKGGGGSGGSGSGGGGSASGSGQMQLVQSGPEVKKPGTSVKVSCKASGFTFTSSAVQWVRQRQRLEWIGWIVVGSGNTNYAQKFQERVTITRDMSTSTAYMELSSLRSEDTAVYYCAAPNCSNVVCYDGFDIWGQGTMVTVSSGGSSGQVQLVESGGGVVQPGRSLRLSCAASGFTLSSYGMHWVRQAPGKGLEWVAVISYDGSNKYYVDSVKGRFTISRDNSKNTLYLQMNSLRAEDTAVYYCRWAYWELLPDYYYGMDVWGQGTTVTVSSASGGSGDKTHTCPPCPAPELLGGPSVFLFPPKPKDTLMISRTPEVTCVVVDVSHEDPEVKFNWYVDGVEVHNAKTKPREEQYNSYVVSVLTVLHQDWLNGKEYKCKVSNKALPAPIEKTISKAKGQPREPQVYTLPPCRDELTKNQVSLWCLVKGFYPSDIAVEWESNGQPENNYKTTPPVLDSDGSFFKKLTVDKSRWQQGNVFSCSVLHEALHSHYTQKSLSLSPG
chain 2: B2 chain 1
Take B2: the “IC50, pseudovirus neutralization” value in assay [7] came to 5120 nM; in [8], 65.9 nM; in [9] it was 1.6 nM; in assay [10] it was 68.4 nM; in assay [11], 39.7 nM. In addition, the “IC80, pseudovirus neutralization” value in assay [7] was more than 10000 nM; in assay [8], 244 nM; in assay [9], 3.92 nM; in [10], 174 nM; in [11], 187 nM.

B3: MX838 (other)
chain 1: B2 chain 1 with V208G
chain 2: DIQMTQSPSSVSASVGDRVIITCRASQGISSWLAWYQQKPGKAPKVLIYDASSLQSGVPSRFSGSGYGTDFTLTISSLQPEDSATYYCQQAKSFPITFGQGTRLEIKGGSSGEIVLTQSPGTLSLSPGERATLSCRASQSVSSSYLAWYQQKPGQAPRLLIYSASSRATGIPDRFSGSGSGTDFTLTISRLEPEDFAVYFCQQYGGLTGWTFGQGTKVEIKGGGGSGGSGSGGGGSASGSGQMQLVQSGPEVKKPGTSVKVSCKASGFTFTSSAVQWVRQRQRLEWIGWIVVGSGNTNYAQKFQERVTITRDMSTSTAYMELSSLRSEDTAVYYCAAPNCSNVVCYDGFDIWGQGTMVTVSSGGSSGQVQLVESGGGVVQPGRSLRLSCAASGFTFSSYAFHWVRQAPGKGLEWVAVISYDGSNQYYADSVKGRFTISRDNSKNTLYLQMNSLRADDTAVYYCARDLAIAVAGTWHYYNGMDVWGQGTTVTVSSASGGSGDKTHTCPPCPAPELLGGPSVFLFPPKPKDTLMISRTPEVTCVVVDVSHEDPEVKFNWYVDGVEVHNAKTKPREEQYNSYVVSVLTVLHQDWLNGKEYKCKVSNKALPAPIEKTISKAKGQPREPQVCTLPPSRDELTKNQVSLSCAVKGFYPSDIAVEWESNGQPENNYKTTPPVLDSDGSFFLVSKLTVDKSRWQQGNVFSCSVLHEALHSHYTQKSLSLSPG
With B3, the “IC50, pseudovirus neutralization” value is 5830 nM in [7]; 27.1 nM in [8]; 1.17 nM in assay [9]; 38.8 nM in [10]; 11.7 nM in [11]. In addition, the “IC80, pseudovirus neutralization” value in assay [7] is more than 10000 nM; in assay [8], 132 nM; in assay [9] it was 3.23 nM; in assay [10], 115 nM; in [11] it was 46.5 nM.

B4: MX835 (other)
chain 1: B2 chain 1 with V208G
chain 2: EIVLTQSPGTLSLSPGERATLSCRASQSVSSSYLAWYQQKPGQAPRLLIYSASSRATGIPDRFSGSGSGTDFTLTISRLEPEDFAVYFCQQYGGLTGWTFGQGTKVEIKGGSSGDIQMTQSPSSVSASVGDRVIITCRASQGISSWLAWYQQKPGKAPKVLIYDASSLQSGVPSRFSGSGYGTDFTLTISSLQPEDSATYYCQQAKSFPITFGQGTRLEIKGGGGSGGSGSGGGGSASGSGQVQLVESGGGVVQPGRSLRLSCAASGFTFSSYAFHWVRQAPGKGLEWVAVISYDGSNQYYADSVKGRFTISRDNSKNTLYLQMNSLRADDTAVYYCARDLAIAVAGTWHYYNGMDVWGQGTTVTVSSGGSSGQMQLVQSGPEVKKPGTSVKVSCKASGFTFTSSAVQWVRQRQRLEWIGWIVVGSGNTNYAQKFQERVTITRDMSTSTAYMELSSLRSEDTAVYYCAAPNCSNVVCYDGFDIWGQGTMVTVSSASGGSGDKTHTCPPCPAPELLGGPSVFLFPPKPKDTLMISRTPEVTCVVVDVSHEDPEVKFNWYVDGVEVHNAKTKPREEQYNSYVVSVLTVLHQDWLNGKEYKCKVSNKALPAPIEKTISKAKGQPREPQVCTLPPSRDELTKNQVSLSCAVKGFYPSDIAVEWESNGQPENNYKTTPPVLDSDGSFFLVSKLTVDKSRWQQGNVFSCSVLHEALHSHYTQKSLSLSPG
In the case of B4, the “IC50, pseudovirus neutralization” value in assay [7] was 4240 nM; in [8] it was 61.4 nM; in assay [9], 6.52 nM; in assay [10], 71.1 nM; in assay [11] it was 41 nM. In addition, the “IC80, pseudovirus neutralization” value in assay [7] is more than 10000 nM; in assay [8] it was 282 nM; in assay [9], 11.7 nM; in [10] it was 179 nM; in assay [11], 216 nM.
